Test system: HCV Subgenomic Replicon
Experiment: HCV-Huh-5-2 replicon cell assay (luciferase)
Format: cell-based, Hepatitis C virus
Conditions: Huh-5-2 cells
Method: Huh-5-2 cells [a cell line with a persistent HCV replicon I3891uc-ubi-neo/NS3-3′/5.1; replicon with firefly luciferase-ubiquitin-neomycin phosphotransferase fusion protein and EMCV-IRES driven NS3-5B HCV polyprotein] was cultured in RPMI medium (Gibco) supplemented with 10% fetal calf serum, 2 mM L-glutamine (Life Technologies), 1× non-essential amino acids (Life Technologies); 100 IU/ml penicillin and 100 ug/ml streptomycin and 250 ug/ml G418 (Geneticin, Life Technologies). Cells were seeded at a densitiy of 7000 cells per well in 96 well View Plate™ (Packard) in medium containing the same components as described above, except for G418. Cells were allowed to adhere and proliferate for 24 hr. At that time, culture medium was removed and serial dilutions of the test compounds were added in culture medium lacking G418. Interferon alfa 2a (500 IU) was included as a positive control. Plates were further incubated at 37° C. and 5% CO2 for 72 hours. […] Luciferase activity is measured by adding 50 μl of 1× Glo-lysis buffer (Promega) for 15 minutes followed by 50 ul of the Steady-Glo Luciferase assay reagent (Promega). Luciferase activity is measured with a luminometer and the signal in each individual well is expressed as a percentage of the untreated cultures. […] Instead the density of the culture is measured by means of the MTS method (Promega).

CC(=O)OCC1OC(n2c(SCc3cc4cc(Br)ccc4oc3=O)nc3cc(Cl)c(Cl)cc32)C(OC(C)=O)C(OC(C)=O)C1OC(C)=O (stereo not shown) [Compound 7g, Acetic acid 3,5-diacetoxy-2-acctoxymethyl-6-[2-(6-bromo-2-oxo-2H-chromen-3-ylmethylsulfanyl)-5,6-dichloro-benzoimidazol-1-yl]-tetrahydro-pyran-4-yl ester]
SI (selectivity index, ratio of CC50 to EC50): > 15.9

Reference: patent publication US20090197910A1, “NOVEL VIRAL REPLICATION INHIBITORS” (KATHOLIEKE UNIVERSITEIT LEUVEN, priority 2006, published 2009)
